Results of unrelated studies side by side (data: NIAID ChemDB).

Shared fields: tests on isolated targets; organism: HIV-1; target: Integrase; read-out: IC50

ICn is the concentration giving n% inhibition. Conditions beyond the fields shown may differ between rows. a–b is a range or a potency band.

smiles,read by,value
O=C1c2c(O)c(=O)n(C3CCOCC3)c(=O)n2CCN1Cc1ccc(F)cc1,strand transfer,<10 µM
O=c1c(-c2cnccn2)cn2ccn(Cc3cccc(F)c3)c(=O)c2c1O,ELISA,0.01–0.1 µM
CN(C)C(=O)C(=O)N1CCn2c(nc(C(=O)NCc3ccc(F)cc3)c(O)c2=O)C1,ELISA,<10 µM
COc1cc(Cl)ccc1Cn1ccn2ccc(=O)c(O)c2c1=O,ELISA,0.01–0.1 µM
O=C(/C=C(\O)C(=O)O)NCc1ccc(Cl)cc1,strand transfer,<70 µM
O=C1c2c(O)c(=O)ccn2CCN1Cc1ccc(Cl)cc1,ELISA,0.01–0.1 µM
Cc1cc(CN(C)C(=O)/C=C(\O)C(=O)O)ccc1F,strand transfer,<70 µM
O=c1ncn2ccn(Cc3ccc(Cl)c(Cl)c3)c(=O)c2c1O,ELISA,0.01–0.1 µM
COc1ccc(CN(Cc2ccc(F)cc2)C(=O)/C=C(\O)C(=O)O)cc1Cl,strand transfer,<70 µM
O=c1c(-c2ccncn2)cn2ccn(Cc3cccc(Cl)c3F)c(=O)c2c1O,ELISA,<0.01 µM
COc1ccc(-n2c(=O)c(O)c3n(c2=O)CCN(Cc2ccc(F)cc2)C3=O)cc1,strand transfer,<10 µM
Cc1cnc(CN2CCn3c(nc(C(=O)NCc4ccc(F)cc4)c(O)c3=O)C2(C)C)o1,ELISA,<10 µM
CC(C)n1c(=O)c(O)c2n(c1=O)C(CCn1ccnc1)CN(Cc1ccc(F)cc1)C2=O,strand transfer,<10 µM
CN1CCn2c(nc(C(=O)NCc3ccc(F)cc3)c(O)c2=O)C12CCOCC2,ELISA,<10 µM
Cn1c(=O)c(O)c2n(c1=O)CCN(Cc1ccc(F)cc1)C2=O,strand transfer,<10 µM
O=C(O)/C(O)=C/C(=O)N(Cc1ccc(F)cc1)Cc1ccc(F)cc1F,strand transfer,<70 µM
Cc1coc(CN2CCn3c(nc(C(=O)NCc4ccc(F)cc4)c(O)c3=O)C2(C)C)n1,ELISA,<10 µM
COCC(C)(C)C(=O)c1cn2ccn(Cc3ccc(F)cc3)c(=O)c2c(O)c1=O,ELISA,<0.01 µM
O=C(CCCCCNC(=O)/C(O)=C/C(=O)N(Cc1ccc(F)cc1)Cc1ccc(F)cc1)NS(=O)(=O)c1ccccc1,strand transfer,<70 µM
O=C1c2c(O)c(=O)c(-c3nccs3)cn2CCN1Cc1cccc(Cl)c1F,ELISA,<0.01 µM
CC1c2nc(C(=O)NCc3ccc(F)cc3)c(O)c(=O)n2CCN1C(=O)C(=O)N(C)C,ELISA,<10 µM

3 of the rows above, restated:

smiles,read by,value
Cc1coc(CN2CCn3c(nc(C(=O)NCc4ccc(F)cc4)c(O)c3=O)C2(C)C)n1,ELISA,<10 µM
O=c1c(-c2cnccn2)cn2ccn(Cc3cccc(F)c3)c(=O)c2c1O,ELISA,0.01–0.1 µM
CN(C)C(=O)C(=O)N1CCn2c(nc(C(=O)NCc3ccc(F)cc3)c(O)c2=O)C1,ELISA,<10 µM